Human monoclonal antibodies against the spike receptor-binding domain (heavy:light variable regions). IC50 against pseudoviruses bearing the spike of naturally observed variants; lower = stronger; >10 µg/ml means not reached at the top dose. No active / inactive call. The stated detection limit is 0.0005 µg/ml; values near or below 0.001 µg/ml lie at the floor of the assay.
B1: BD56-1600 (protein)
chain 1: QVQLVQSGAGVKRPGASVKVSCKASGYSFTSYYVHWVRQAPGQRLEWMGTINPSGGSTTYAQNFQGRVTMTSDTSTSTVYMELISLRSEDTAVYYCARDSYYYDSGYYRHYNWFDPWGQGTLVTVSS
chain 2: NFMLTQPHSVSESPGKTVTISCTGSGGDIGSNYVQWYQQRPGSAPTTVIYKNNQRPSGVPDRFSGSIDSSSNSASLTISGLKSEDEAEYYCQSYDSSNQVFGGGTKLAVL
B2: BD56-1613 (protein)
chain 1: EVQLVQSGAEVKKPGESLKISCKGSGYSFTTFWIGWVRQMPGKGLEWMGIIFPGDSDTRYSPSFQGQVTISADKSISTAYLQWRSLKASDTAIYYCARLFDYVGFDPWGQGTLVTVSS
chain 2: SSELTQDPAVSVALGQTIRITCQGDSLRSYYASWYQQKPGQAPILVIYDKDKRPSGIPDRFSGSSSGNTASLTISGAQAEDEADYYCNSRDNDDNHYVFGTGTKVTVL
B3: BD56-1605 (protein)
chain 1: EVQLVESGGGLVQPGGSLRVSCAASGFIFNSYWMTWVRQAPGKGLEWVANIKQDGSETNYVDSVKGRFTISRDNAKNSLYLEMRSLRSEDTAVYHCARDPVDGYIDYWGQGTLVTVSS
chain 2: EIVMTQSPATLSASPGERATLSCRASDYISSSLAWYQQTPGQAPRLLIYGASTRATGVPARFSGSGSGTEFTLTISSLQSEDFAVYSCHQYHSWPPWTFGQGTKVEIK
B4: BD56-1594 (protein)
chain 1: EVQLVESGGGLVQPGRSLRLSCSASGFTFDDYGMHWVRQGPGTGLEWVSGINWNSDSVAYADSVKGRFTISRDNAKNFLYLQMNSLRTEDTAMYYCAKDMRVGFGDYFDYWGQGTLVTVSA
chain 2: SYVLTQPPSVSVAPGKTARITCGGNNIGSKSVHWYQQKPGQAPVVVIHYDSDRPSGIPERFSGSNSGNTATLTISRVEAGDEADYYCQVWDSSSDHPYVFGAGTKVTVL
B5: BD56-1630 (protein)
chain 1: EVQLVQSGAEVKKPGESLKISCKASGYSFISYWVGWVRQMPGKGLEWMGLIYPGDSDTRYSPSFQGHVTISADKSISTTYLQWSSLKASDTAMYYCARRDSSWNDFDLWGQGSLVTVSS
chain 2: DIQMTQSPSSLSASVGDSVTITCRASQTISSYLNWYQQKPGKAPKLLIYAASSLQSGVPSRFRGSGSGTDFTLTISSLQPEDFATYYCQESYSSLYTFGQGTKLDIK
B6: BD56-1581 (protein)
chain 1: QVQLQESGPGLVKPSETLSLTCTVSGGSISSYYWSWIRQPAGQGLEWIGRMYISGSTNYNPSLKSRVTMSVDTSKSQFSLNLSSVTAADTAVYYCARGTITAGPDDYFYYYGMDVWGPGTTVTVSS
chain 2: SYELTQPPSVSVSPGQTARITCSGDALPKQYAYWFQQKPGQAPLLVIHKDSERPSGIPERFSGSSSGTTVTLTISGVQAEDEADYYCQSADSSGTYCVFGGGTKLTVL

What follows are binders tested against SARS-CoV-2 Omicron BA.1 spike pseudovirus (assay: pseudovirus neutralization IC50; higher = weaker neutralization).
Method: (§1)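 Single-round VSV luciferase pseudovirus mixed with antibody dilutions for 1 h and put on Huh-7 cells for about a day; IC50 from the dose curve.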

**Q.** Which “pseudovirus neutralization IC50” value does the source give for B1 here?
**A.** 0.839 µg/mL

**Q.** B2 was tested. Which “pseudovirus neutralization IC50” value did it give?
**A.** 0.565 µg/mL

**Q.** For B3, which “pseudovirus neutralization IC50” value is on record?
**A.** > 10 µg/mL

**Q.** With B4 as the binder, how does the “pseudovirus neutralization IC50” value read?
**A.** > 10 µg/mL

**Q.** How did the “pseudovirus neutralization IC50” value turn out when B5 was run?
**A.** > 10 µg/mL

**Q.** For B6, which “pseudovirus neutralization IC50” value is on record?
**A.** 0.814 µg/mL

Each binder was assayed against SARS-CoV-2 Omicron BA.2 spike pseudovirus in the same assay as above.
Method: as §1

**Q.** For B1, which “pseudovirus neutralization IC50” value is on record?
**A.** 0.943 µg/mL

**Q.** For B2, which “pseudovirus neutralization IC50” value is on record?
**A.** 0.636 µg/mL

**Q.** How did the “pseudovirus neutralization IC50” value turn out when B3 was run?
**A.** > 10 µg/mL

**Q.** For B4, which “pseudovirus neutralization IC50” value is on record?
**A.** > 10 µg/mL

**Q.** Which “pseudovirus neutralization IC50” value does the source give for B5 here?
**A.** > 10 µg/mL

**Q.** For B6, which “pseudovirus neutralization IC50” value is on record?
**A.** 0.78 µg/mL

These binders were tested against SARS-CoV-2 Omicron BA.2.75 spike pseudovirus in the same assay as above.
Method: as §1

**Q.** With B1 as the binder, how does the “pseudovirus neutralization IC50” value read?
**A.** 0.576 µg/mL

**Q.** How did the “pseudovirus neutralization IC50” value turn out when B2 was run?
**A.** 0.908 µg/mL

**Q.** For B3, which “pseudovirus neutralization IC50” value is on record?
**A.** > 10 µg/mL

**Q.** Which “pseudovirus neutralization IC50” value does the source give for B4 here?
**A.** > 10 µg/mL

**Q.** With B5 as the binder, how does the “pseudovirus neutralization IC50” value read?
**A.** > 10 µg/mL

**Q.** B6 was tested. Which “pseudovirus neutralization IC50” value did it give?
**A.** 0.389 µg/mL

The binders below were run against SARS-CoV-2 Omicron BA.5 spike pseudovirus in the same assay as above.
Method: as §1

**Q.** Which “pseudovirus neutralization IC50” value does the source give for B1 here?
**A.** 0.35 µg/mL

**Q.** B2 was tested. Which “pseudovirus neutralization IC50” value did it give?
**A.** 0.93 µg/mL

**Q.** With B3 as the binder, how does the “pseudovirus neutralization IC50” value read?
**A.** > 10 µg/mL

**Q.** Which “pseudovirus neutralization IC50” value does the source give for B4 here?
**A.** > 10 µg/mL

**Q.** B5 was tested. Which “pseudovirus neutralization IC50” value did it give?
**A.** > 10 µg/mL

**Q.** For B6, which “pseudovirus neutralization IC50” value is on record?
**A.** 1.52 µg/mL

These binders were tested against SARS-CoV-2 Omicron BQ.1.1 spike pseudovirus in the same assay as above.
Method: as §1

**Q.** B1 was tested. Which “pseudovirus neutralization IC50” value did it give?
**A.** 1.08 µg/mL

**Q.** B2 was tested. Which “pseudovirus neutralization IC50” value did it give?
**A.** 0.754 µg/mL

**Q.** With B3 as the binder, how does the “pseudovirus neutralization IC50” value read?
**A.** > 10 µg/mL

**Q.** For B4, which “pseudovirus neutralization IC50” value is on record?
**A.** > 10 µg/mL

**Q.** For B5, which “pseudovirus neutralization IC50” value is on record?
**A.** > 10 µg/mL

**Q.** For B6, which “pseudovirus neutralization IC50” value is on record?
**A.** 2.91 µg/mL

Each binder was assayed against SARS-CoV-2 Omicron XBB spike pseudovirus in the same assay as above.
Method: as §1

**Q.** How did the “pseudovirus neutralization IC50” value turn out when B1 was run?
**A.** 0.791 µg/mL

**Q.** B2 was tested. Which “pseudovirus neutralization IC50” value did it give?
**A.** 0.715 µg/mL

**Q.** With B3 as the binder, how does the “pseudovirus neutralization IC50” value read?
**A.** > 10 µg/mL

**Q.** B4 was tested. Which “pseudovirus neutralization IC50” value did it give?
**A.** > 10 µg/mL

**Q.** Which “pseudovirus neutralization IC50” value does the source give for B5 here?
**A.** > 10 µg/mL

**Q.** With B6 as the binder, how does the “pseudovirus neutralization IC50” value read?
**A.** 2.61 µg/mL

The binders below were run against SARS-CoV-2 early D614G spike pseudovirus in the same assay as above.
Method: as §1

**Q.** How did the “pseudovirus neutralization IC50” value turn out when B1 was run?
**A.** 0.939 µg/mL

**Q.** B2 was tested. Which “pseudovirus neutralization IC50” value did it give?
**A.** > 10 µg/mL

**Q.** For B3, which “pseudovirus neutralization IC50” value is on record?
**A.** > 10 µg/mL

**Q.** With B4 as the binder, how does the “pseudovirus neutralization IC50” value read?
**A.** > 10 µg/mL

**Q.** B5 was tested. Which “pseudovirus neutralization IC50” value did it give?
**A.** > 10 µg/mL

**Q.** Which “pseudovirus neutralization IC50” value does the source give for B6 here?
**A.** 0.888 µg/mL

Reference: the supplement of paper PMC9931576
